This note sets out measurements from paper PMC4791841, “Nanomolar Inhibitors of Trypanosoma brucei RNA Triphosphatase” (mBio, 2016).

Chains of the proteins cited; added tags and fusions are not shown. Residues count along the entry.
UniProt Q582T2, 1-253: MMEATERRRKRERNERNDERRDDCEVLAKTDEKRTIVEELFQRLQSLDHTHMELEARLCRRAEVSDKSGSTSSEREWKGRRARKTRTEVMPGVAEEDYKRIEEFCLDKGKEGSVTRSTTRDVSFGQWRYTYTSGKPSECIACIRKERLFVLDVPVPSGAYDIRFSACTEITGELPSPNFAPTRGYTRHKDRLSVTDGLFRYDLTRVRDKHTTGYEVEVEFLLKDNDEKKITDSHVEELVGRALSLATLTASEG

In the assay the target is TbCet1 (Trypanosoma brucei brucei, UniProt Q582T2). Conditions: read-out: IC50 TbCet1 by 32P assay; 2.2 nM TbCet1, 0.2 mM ATP, 2 mM Mn2+, 10 min 37°C.

Some results are limits rather than exact numbers.

In general, IC50 refers to the concentration needed to halve the response being measured.

Regarding `O=C(/C=C/c1ccccc1)O[C@@H]1C[C@@](O)(C(=O)O)C[C@@H](O)[C@@H]1O`, the IC50 stood at 210 µM.

With `O=C(/C=C/c1ccc(O)cc1)O[C@@H]1C[C@](O)(C(=O)O)C[C@@H](O)[C@H]1O`, the IC50 is > 500 µM.
